Measured values from patent US20070161078A1.

What was measured:
[1] = target: influenza A NS1, C-terminus ESEI (influenza A)
[2] = target: influenza A NS1, C-terminus ESKV (influenza A)
[3] = target: MBP.NS1 H5N1A (EPEV) (influenza A H5N1) (UniProt O56264); assay: G assay titration
[4] = target: Peptide 1958 H5N1A (EPEV) (influenza A H5N1); assay: G assay titration
[5] = target: MBP.NS1 H5N1A (EPEV) (influenza A H5N1) (UniProt O56264); assay: direct binding assay titration
[6] = target: MBP.NS1 H5N1A (EPEV) (influenza A H5N1) (UniProt O56264); assay: titration, direct binding sandwich assay

Row | Substance | affinity [1] [nM] | affinity [2] [nM] | EC50 [3] [µg/mL] | EC50 [4] [µg/mL] | EC50 [5] [µg/mL] | EC50 [6] [µg/mL]
1 | PSD-95 (from UniProt P78352 59-402) | 200 | 45 |  |  |  | 
2 | PSD95 d1,2,3 (from UniProt P78352 59-402) |  |  | > 100 | 4.1 | 15.7 | 15.8
3 | DLG1 d1,2 (from UniProt Q12959 218-410) |  |  | 23 |  | > 100 | 
